Anti-infective test results gathered from many reports (values: NIAID ChemDB through PubChem).

Common to all: growth or infection tests; agent: HIV-1; read-out: fold resistance

Fold resistance: result on the changed form divided by that on wild type. Rows are shuffled and stem from different studies. Blank or dashed fields: not listed here.

smiles	strain or isolate	changes	cell line	read by	value
Nc1nc(=O)n([C@@H]2CS[C@H](CO)O2)cc1F	-	RT-S68G Q151M T215Y	-	-	~1
CC(=O)c1ccc(C)cc1NC(C(N)=O)c1c(Cl)cccc1Cl	IIIB	RT-V108I	MAGI	MTT	31.1
Cc1cn([C@H]2C[C@H](N=[N+]=[N-])[C@@H](CO)O2)c(=O)[nH]c1=O	-	INTG-S153Y	-	-	1
C#C[C@@]1(CO)C=C[C@H](n2cc(C)c(=O)[nH]c2=O)O1	NL4-3	RT-K103N	MAGI (CCR5) + MAGI	β-galactosidase	0.59
Cc1cn([C@H]2C=C[C@@H](CO)O2)c(=O)[nH]c1=O	Recombinant	RT-M41L S68N G112S M184V	HeLa	luciferase	0.6
Nc1nc2c(ncn2[C@H]2CO[C@@H](CO)O2)c(=O)[nH]1	K65R	RT-K65R	-	-	7
O=c1[nH]cnc2c1ncn2[C@H]1CC[C@@H](CO)O1	RT-68G 151M 215Y	RT-S68G Q151M T215Y	-	-	2
O=c1[nH]cnc2c1ncn2[C@H]1CC[C@@H](CO)O1	BCF02	RT-A98G V106I Y181C	PBMC	-	0.353
Cc1ccc(S(=O)(=O)N(CC(C)C)C[C@@H](O)[C@H](Cc2ccccc2)NC(=O)O[C@H]2CO[C@H]3OCC[C@H]32)cc1	IIIB	K112M K113E V128I M200I H219P I401T R409K D437N L441P	MT-2	p24 / ELISA	5.4
Nc1ccn([C@H]2CC[C@@H](CO)O2)c(=O)n1	RTMN(181 184) (RT M41L Y181C M184V T215Y)	RT-M41L Y181C M184V T215Y	HT4 + HT4 LacZ-1	plaque count	3.92
CC(C)=CCOc1cc(NC(=S)c2ccoc2C)ccc1Cl	Costatolide-resistant (RT L100I T139I)	RT-L100I T139I	CEM + CEM-SS	XTT	8
Cc1cn([C@H]2C=C[C@@H](CO)O2)c(=O)[nH]c1=O	HXB2	RT-Y181C	MAGI (CCR5) + MAGI	β-galactosidase	0.68
Nc1ccn([C@H]2CC[C@@H](CO)O2)c(=O)n1	JF138M1 (RT M41L D67N T69D L210W T215Y) Chimeric clone	RT-M41L D67N T69D L210W T215Y	HELA-CD4+	plaque count	3.66
Cc1cn([C@H]2C[C@H](N=[N+]=[N-])[C@@H](CO)O2)c(=O)[nH]c1=O	NL4-3	RT-V108I	CEM + CEM-SS	XTT	8
C[C@H](Cn1cnc2c(N)ncnc21)OCP(=O)(O)O	1391-4 high AZT resistance (RT D67 K70 T215)	RT-D67 K70 T215	MT-2	p24	0.235
O=S(=O)(c1ccccc1)c1ccccc1	Costatolide-resistant (RT L100I T139I)	RT-L100I T139I	CEM + CEM-SS	XTT	23
N#Cc1cc2[nH]c3ccccc3c2n(-c2ccc([N+](=O)[O-])cc2)c1=O	NNRTI-resistant	RT-V106I Y188L	HeLa	luciferase	0.4
C/C=C/CSc1cc(NC(=S)c2ccsc2C)ccc1Cl	UC040-R (RT-Y181C)	RT-Y181C	CEM + CEM-SS	cytopathic effect / XTT	>33.3
CC(C)(C)C(=O)c1sc(C(=O)NCCc2ccccc2)c(O)c1O	-	INTG-V151I	-	-	1
Nc1nc2c(ncn2[C@H]2CO[C@@H](CO)O2)c(=O)[nH]1	RT-103N 181C	RT-K103N Y181C	-	-	0.15
Cc1cc(Cl)cc(S(=O)(=O)c2cccc(N)c2C#N)c1	-	RT-K103N Y181C	HeLa + HELA CD4+	β-galactosidase	>5560
Cc1occc1C(=S)Nc1ccc(Cl)c(/C=N/OC(C)(C)C)c1	Diphenyl sulfone-resistant (RT-Y181C)	RT-Y181C	CEM + CEM-SS	cytopathic effect / XTT	5.5
Cc1cc(O)cc(S(=O)(=O)c2cccc(N)c2C#N)c1	-	RT-K103N Y181C	HeLa + HELA CD4+	β-galactosidase	>794
Cc1cn([C@H]2C[C@H](N=[N+]=[N-])[C@@H](CO)O2)c(=O)[nH]c1=O	IIIB	K112M K113E V128I	MT-2	p24 / ELISA	0.7
O=c1[nH]cnc2c1ncn2[C@H]1CC[C@@H](CO)O1	HXB2	RT-M41L Y181C T215Y	HT4 + HT4 LacZ-1	plaque count	0.429
Cc1cc(S(N)(=O)=O)ccc1NC(=O)COc1ccc(Cl)cc1C(=O)c1cc(Cl)cc(C#N)c1	NNRTI-resistant (RT V106A Y181C)	RT-V106A Y181C	MAGI	β-galactosidase	1.7
COc1cc(C(F)(F)F)cc(S(=O)(=O)c2cccc(N)c2C#N)c1	-	RT-V106A	HeLa + HELA CD4+	β-galactosidase	0.207
CCOP(=O)(COc1ccc(C[C@H](NC(=O)O[C@H]2CO[C@H]3OCC[C@H]32)[C@H](O)CN(CC(C)C)S(=O)(=O)c2ccc(OC)cc2)cc1)OCC	IIIB	D437N	MT-2	p24 / ELISA	1.5
Cc1cc(Br)cc(S(=O)(=O)c2cccc(N)c2C#N)c1	-	RT-K103N P225H	HeLa + HELA CD4+	β-galactosidase	300
O=C(NCc1ccc(F)cc1)c1nc(N2CCCCS2(=O)=O)c2cccnc2c1O	-	INTG-N155H	-	-	26
Cc1ccnc2c1NC(=O)c1cccnc1N2C1CC1	MVP5180 (RT A98G K103R)	RT-A98G K103R	PBMC	-	6.6
CCc1c(Sc2ccccn2)n(COCc2ccccc2)c(=O)[nH]c1=O	UC10-resistant (RT Y181C K101E)	RT-Y181C K101E	CEM + CEM-SS	cytopathic effect / XTT	>250
Nc1nc(=O)n([C@@H]2CS[C@H](CO)O2)cc1F	HXB2	RT-Y181C M184V	HT4 + HT4 LacZ-1	plaque count	>5560
Cn1c2ccccc2c2c1cc(C#N)c(=O)n2-c1ccc([N+](=O)[O-])cc1	Recombinant	RT-V118I M184V	HeLa	luciferase	4.2
CC(C)=CCN1Cc2cc(Cl)cc3[nH]c(=S)n(c23)C[C@@H]1C	BCF11	RT-A98G K103R	PBMC	-	>312.5
Cc1ccnc2c1NC(=O)c1cccnc1N2C1CC1	Calanolide A-resistant (RT T139I)	RT-T139I	CEM + CEM-SS	XTT	1
Fc1cccc(F)c1C1SCc2nc3ccccc3n21	UC82-R (RT-Y181C)	RT-Y181C	CEM + CEM-SS	cytopathic effect / XTT	>20.3